Here are results for 1 sequence from article PMC5431807, “Structural Basis for Importin-α Binding of the Human Immunodeficiency Virus Tat” (Scientific Reports, 2017).

Usually Kd stands for the equilibrium constant for the complex coming apart.

This assay has as its target importin-α (Mus musculus, UniProt P52293). The experiment in a line: GST-pulldown assay for affinity determination (importin-α titrated on GST-Tat:NLS/CPP beads). To be noted: read-out: binding affinity (dissociation constant, KD); GST-Tat:NLS/CPP on glutathione agarose beads; mouse importin-α lacking IBB domain (residues 70–529), two-fold serial dilutions from 30 µM; 1 h at 4 °C; SDS-PAGE, ImageJ; one-site specific binding, Prism 7; from three replicates.

Consider GRKKRRQRRRAPQN [Tat:NLS/CPP], for which the Kd came to 1200 ± 200 nM.
